The exact form of at least one protein or probe is not confirmed. For some assays here: At least one verdict rests on a figure or table, not on a statement of the authors. For some assays here: Where a protein sequence is shown, tags need not be part of it.
Key:
Assay in all cases: EMSA
[1] = target: SarA-His6 (Staphylococcus aureus TZ0912) (UniProt Q7A1N5); conditions: EMSA: 750 mM NaCl, 50 mM Tris-HCl pH 7.4, 0.5 mM DTT, 20 ng probe in 20 uL, 30 min 37 C; 6% gel, 0.5x TBE; recombinant protein; protein details: His6 (pET28a NdeI/XhoI); label: 5'-FAM; probe letters rebuilt from the primers and the genome
[2] = target: T1, AgrA-His6 (Staphylococcus aureus TZ0912) (UniProt Q5HEG2); conditions: 50 mM acetyl phosphate; EMSA: 750 mM NaCl, 50 mM Tris-HCl pH 7.4, 0.5 mM DTT, 20 ng probe in 20 uL, 30 min 37 C; 6% gel, 0.5x TBE; recombinant protein; protein details: His6 (pET28a NdeI/XhoI); label: 5'-FAM; probe letters rebuilt from the primers and the genome
T1 sequence (looked up, limits assumed): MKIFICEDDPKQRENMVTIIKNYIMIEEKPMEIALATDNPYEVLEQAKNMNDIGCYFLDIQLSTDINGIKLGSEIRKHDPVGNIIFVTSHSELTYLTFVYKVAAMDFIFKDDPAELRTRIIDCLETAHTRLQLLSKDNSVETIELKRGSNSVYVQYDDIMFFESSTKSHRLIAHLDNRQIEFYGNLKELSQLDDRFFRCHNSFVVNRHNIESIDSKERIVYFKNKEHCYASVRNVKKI

Chains of the proteins cited; added tags and fusions are not shown. Lines headed by an entry give the natural chain unless they say otherwise; changes in a name come on top.
UniProt Q7A1N5: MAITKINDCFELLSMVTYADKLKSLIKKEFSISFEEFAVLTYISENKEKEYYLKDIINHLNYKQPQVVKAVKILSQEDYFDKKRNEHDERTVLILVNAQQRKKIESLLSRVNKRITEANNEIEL

[3] = target: T2, ArcR-His6 (Staphylococcus aureus TZ0912) (UniProt Q2FUY1); conditions: EMSA: 750 mM NaCl, 50 mM Tris-HCl pH 7.4, 0.5 mM DTT, 20 ng probe in 20 uL, 30 min 37 C; 6% gel, 0.5x TBE; recombinant protein; protein details: His6 (pET28a NdeI/XhoI); label: 5'-FAM; probe letters rebuilt from the primers and the genome
T2 sequence (looked up, limits assumed): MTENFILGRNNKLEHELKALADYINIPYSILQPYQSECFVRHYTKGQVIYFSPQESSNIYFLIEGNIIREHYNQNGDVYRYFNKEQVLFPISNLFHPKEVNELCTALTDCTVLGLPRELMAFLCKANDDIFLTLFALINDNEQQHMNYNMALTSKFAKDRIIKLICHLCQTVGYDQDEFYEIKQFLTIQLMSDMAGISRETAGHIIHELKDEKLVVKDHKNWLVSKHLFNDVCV

Sequence | binding result [1] | binding result [2] | binding result [3]
GGGAGAACTAGAGATAGAATTTGGAAAAAGATTGTTGTAAATAAAATTATTAATCAATCAAAATGTTTAGAAAACAATTTACATAATGAGAATGTGAAGTTAT (double strand) [Pcas-222-123 (Table S2: -241-142)] | binds |  | 
AAAGCTCCAATTTCGCTATTTACTTTAATTGGACCATCTGTCATGTCTATTTCCTCCTTTTATCTTTGAATTCATTTAGAGTATAGACAATCTTCAAACGCTTACATGTGATTATATTCACATAAAGAAAGTCGAAAATTTCATATCTTTTTGTTATACAATACATAATAATGGATTTTTATACATAAATAAAGGCGTTTTGGATCAAAATATACATTTTTTATTCAAAAATACCCATAAAAACATGTTGTATAAAGTTTTTTATACAGTCAAATGAATGACTATGAATTCTTTCTTTCCATAAAAAAAACGCGTACACAAGTTAATATTTGGTAACTAACTTGAGTACACGTGATACGAAACTAATTTTTATTATTCATTTGATACATGTCTATTTAAATAATTTTGCATATACGTATTCTGCCATATCATTTGAGGC (double strand) [ParcR] |  | binds | 
GGGAGAACTAGAGATAGAATTTGGAAAAAGATTGTTGTAAATAAAATTATTAATCAATCAAAATGTTTAGAAAACAATTTACATAATGAGAATGTGAAGTTATTAGTAAACTTAGCAAAAGATGTTAGTTCTGGAGATAAAAGTAATAAAGAAGCACAGGCTGCAAGAATTTATTTTAAAGATTTATACGGTAAACAATTTAAACGTGGACGGTACAATGATATTATTAACTCAGGGTTGAATTATGGGTATTCGATACTTAGATCTTTTATAAAAAAAGAACTAGCTTTACATGGATTCGAAATGAGTTTAGGCATTAATCATCGTTCG (double strand) [Pcas] | binds |  | binds
GACTAAACCAAATGCTAACCCAGAAATACAATCACTGTGTCTAATGAATAATTTGTTTTATAAACACTTTTTTGTTTACTTCTCATTTTTAATTAGTTATAATTAACTAAATAATAGAGCATTAAATATATTTAATAAAACTTATTTAATGCAAAATTATGACTAACATATCTATAATAAATAAAGATTAGATATCAATATATTATCGGGCAAATGTATCGAGCAAGATGCATCAAATAGGGAGGTTTTAAACATGGCAATTACAAAAATCAATGATTGCTTTGAGTTGTTATCAATGGTCAC (double strand) [PsarA] |  | binds | 
